Measured values published in article PMC8420505, “Identification of lectin receptors for conserved SARS‐CoV‐2 glycosylation sites” (2021).
Where two headings read alike, the source gives them in different places.

Key:
[1] = target: stabilized full‐length trimeric pre‐fusion SARS‐CoV‐2 Spike protein (Spike‐H6) (SARS‐CoV‐2) (UniProt P0DTC2); assay: SPR
[2] = target: stabilized full‐length trimeric pre‐fusion SARS‐CoV‐2 Spike protein (Spike‐H6) (SARS‐CoV‐2) (UniProt P0DTC2); assay: high-speed AFM
[3] = target: stabilized full‐length trimeric pre‐fusion SARS‐CoV‐2 Spike protein (Spike‐H6) (SARS‐CoV‐2) (UniProt P0DTC2); assay: high-speed AFM; remark: listed apart in the source
[4] = target: stabilized full‐length trimeric pre‐fusion SARS‐CoV‐2 Spike protein (Spike‐H6) (SARS‐CoV‐2) (UniProt P0DTC2); assay: single-molecule force spectroscopy (AFM)

Substance: human CLEC4G‐hIgG1 Fc‐fusion protein (from UniProt Q6UXB4) (Fc fusion)
- Kd,1 (first binding step, bivalent analyte model) [1]: 259 nM
- ka,1 (first binding step, bivalent analyte model) [1]: 77700 M⁻¹ s⁻¹
- kd,1 (first binding step, bivalent analyte model) [1]: 0.0201 s⁻¹
- stoichiometry N (lectin molecules per Spike trimer) [2]: 3.5

Substance: human CD209‐hIgG1 Fc‐fusion protein (from UniProt Q9NNX6) (Fc fusion)
- Kd,1 (first binding step, bivalent analyte model) [1]: 2390 nM
- ka,1 (first binding step, bivalent analyte model) [1]: 13200 M⁻¹ s⁻¹
- kd,1 (first binding step, bivalent analyte model) [1]: 0.0316 s⁻¹
- stoichiometry N (lectin molecules per Spike trimer) [3]: 3.6
- stoichiometry N (lectin molecules per Spike trimer) [2]: 3.8
- koff [4]: 0.008 s⁻¹
